Pooled drug test results. Numbers come from NIAID ChemDB, via PubChem.

Common to all: growth or infection tests; agent: Sindbis virus; cells: VERO; endpoint: EC50

ECn is the concentration giving n% inhibition of infection, replication or growth. An empty or dashed field is not shown. Neighbouring rows are from separate reports.

structure	read by	result
O=c1ccn([C@@H]2C[C@H](CO)C[C@H]2CO)c(=O)[nH]1	-	>100 µg/mL
CC(C)O[C@@H]1[C@H](OC(C)C)[C@@H](COS(=O)(=O)NC(=O)O[C@H]2O[C@H](COCc3ccccc3)[C@H](OCc3ccccc3)[C@H](OCc3ccccc3)[C@H]2OCc2ccccc2)O[C@H]1n1ccc(=O)[nH]c1=O	plaque count	100 µg/mL
CCOC(=O)C1=CN(COCCO)S(=O)(=O)NC1=O	-	>400 µg/mL
Cc1ccn2c(C3SCCS3)cnc2c1	-	>1000 µM
COC(=O)[C@]1(C)CCC[C@]2(C)c3ccc4nc5c(nc4c3CCC12)CCCC5	plaque count	>4 µg/mL
C=C(N=CC)c1nc(-c2cccc(C)c2)n(C2O[C@H](CO)[C@@H](O)[C@H](O)[C@H]2O)n1	cytopathic effect	>100 µg/mL
CC(C)O[C@@H]1[C@H](OC(C)C)[C@@H](COS(=O)(=O)NC(=O)O[C@H]2O[C@H](COC(=O)c3ccccc3)[C@@H](OC(=O)c3ccccc3)[C@H](OC(=O)c3ccccc3)[C@H]2OC(=O)c2ccccc2)O[C@H]1n1ccc(=O)[nH]c1=O	plaque count	>100 µg/mL
Cc1cccn2c(C3OCCS3)cnc12	-	>1000 µM
CC(=O)OC[C@H]1O[C@H](OC(=O)NS(=O)(=O)OC[C@H]2O[C@@H](n3ccc(=O)[nH]c3=O)[C@H](OC(C)C)[C@@H]2OC(C)C)[C@H](OC(C)=O)[C@@H](OC(C)=O)[C@@H]1OC(C)=O	plaque count	>100 µg/mL
COC(=O)[C@]1(C)CCC[C@]2(C)c3cc(Br)c4[nH]ccc4c3CCC12	plaque count	>4 µg/mL
Nc1ncnc2c1ccn2[C@@H]1C[C@H](O)[C@@H](O)[C@H]1O	-	>400 µg/mL
CC(C)OC1[C@H](n2ccc(=O)[nH]c2=O)O[C@H](COS(=O)(=O)NC(=O)N[C@@H]2O[C@H](COC(=O)c3ccccc3)[C@@H](OC(=O)c3ccccc3)[C@H](OC(=O)c3ccccc3)[C@H]2OC(=O)c2ccccc2)[C@H]1OC(C)C	plaque count	200 µg/mL
Cc1cccn2c(C3OCCO3)cnc12	-	>1000 µM
COC(=O)[C@]1(C)CCC[C@]2(C)c3ccc4[nH]c(C(F)(F)F)nc4c3CCC12	plaque count	>4 µg/mL
CC(=O)OCCOCN1C=CC(=O)NS1(=O)=O	-	>400 µg/mL
CC(=O)OC[C@H]1O[C@H](OC(=O)NS(=O)(=O)OC[C@H]2O[C@@H](n3ccc(=O)[nH]c3=O)[C@H](OC(C)C)[C@@H]2OC(C)C)[C@@H](OC(C)=O)[C@@H](OC(C)=O)[C@@H]1OC(C)=O	plaque count	>100 µg/mL
C/C(O)=C1\C(=N)N(COCCO)S(=O)(=O)N=C1N	-	>400 µg/mL
CC(=O)N[C@H]1[C@@H](OC(=O)NS(=O)(=O)OC[C@H]2O[C@@H](n3ccc(=O)[nH]c3=O)[C@H](OC(C)C)[C@@H]2OC(C)C)O[C@H](COC(=O)c2ccccc2)[C@@H](OC(=O)c2ccccc2)[C@@H]1OC(=O)c1ccccc1	plaque count	>100 µg/mL
CC(=O)OCCOCN1C(N)=CC(N)=NS1(=O)=O	-	>400 µg/mL
O=c1[nH]c(=O)n(C2C[C@H](CO)[C@@H](CO)C2)cc1I	-	>100 µg/mL
CC(=O)N[C@H]1[C@@H](OC(=O)NS(=O)(=O)OC[C@H]2O[C@@H](n3ccc(=O)[nH]c3=O)[C@H](OC(C)C)[C@@H]2OC(C)C)O[C@H](COC(C)=O)[C@@H](OC(C)=O)[C@@H]1OC(C)=O	plaque count	>100 µg/mL
CCOC(=O)C1=CN(COCCOC(C)=O)S(=O)(=O)N=C1N	-	>400 µg/mL
O=c1[nH]c(=O)n([C@@H]2C[C@H](CO)C[C@H]2CO)cc1I	-	>100 µg/mL

The last 3 rows once more:

structure,read by,result
CC(=O)N[C@H]1[C@@H](OC(=O)NS(=O)(=O)OC[C@H]2O[C@@H](n3ccc(=O)[nH]c3=O)[C@H](OC(C)C)[C@@H]2OC(C)C)O[C@H](COC(C)=O)[C@@H](OC(C)=O)[C@@H]1OC(C)=O,plaque count,>100 µg/mL
CCOC(=O)C1=CN(COCCOC(C)=O)S(=O)(=O)N=C1N,-,>400 µg/mL
O=c1[nH]c(=O)n([C@@H]2C[C@H](CO)C[C@H]2CO)cc1I,-,>100 µg/mL